Reference: US20110189692A1

Target: soluble / monomeric Aβ42 (endogenous in normal human plasma or CSF, or synthetic monomers 1-42) (human) (UniProt P05067)
Test: PSR1 beads with 25 ng/ml monomeric Aβ42 in increasing concentrations of plasma

For “PSR1 (peptoid reagent XIIb attached to magnetic beads) (designed binder)”, the inhibition of binding by 20% plasma was > 90%.
